Assay results taken from US10765662B2, “Mono- or di-substituted indole derivatives as dengue viral replication inhibitors” (Janssen Pharmaceuticals, Inc., priority 2015, dated 2020).

Tested on: DENV-2 16681 strain labeled with enhanced green fluorescent protein
Test: DENV-2 antiviral assay (eGFP fluorescence read-out in Vero cells)
Type: cell-based, Dengue virus
Conditions: SI=CC50/EC50, DENV-2 antiviral assay
Experimental: The antiviral activity of all the compounds of the invention was tested against the DENV-2 16681 strain which was labeled with enhanced green fluorescent protein (eGPF). The culture medium consists of minimal essential medium supplemented with 2% of heat-inactivated fetal calf serum, 0.04% gentamycin (50 mg/mL) and 2 mM of L-glutamine. Vero cells, obtained from ECACC, were suspended in culture medium and 25 μL was added to 384-well plates (2500 cells/well), which already contain the antiviral compounds. Typically, these plates contain a 5-fold serial dilution of 9 dilution steps of the test compound at 200 times the final concentration in 100% DMSO (200 nL). […] Finally, each plate contains wells which are assigned as virus controls (containing cells and virus in the absence of compound), cell controls (containing cells in the absence of virus and compound) and medium controls (containing medium in the absence of cells, virus and compounds). To the wells assigned as medium control, 25 μL of culture medium was added instead of Vero cells. Once the cells were added to the plates, the plates were incubated for 30 minutes at room temperature to allow the cells to distribute evenly within the wells. Next, the plates were incubated in a fully humidified incubator (37° C., 5% CO2) until the next day. Then, DENV-2 strain 16681, labeled with eGFP, was added at a multiplicity of infection (MOI) of 0.5. Therefore, 15 μL of virus suspension was added to all the wells containing test compound and to the wells assigned as virus control. In parallel, 15 μL of culture medium was added to the medium and cell controls. Next, the plates were incubated for 3 days in a fully humidified incubator (37° C., 5% CO2). At the day of the read out, the eGFP fluorescence was measured using an automated fluorescence microscope at 488 nm (blue laser). Using an in-house LIMS system, inhibition dose response curves for each compound were calculated and the half maximal effective concentration (EC50) was determined. Therefore, the percent inhibition (I) for every test concentration is calculated using the following formula: I=100*([…])/(SVC−SCC); ST, SCC and SVC are the amount of eGFP signal in the test compound, cell control and virus control wells, respectively. The EC50 represents the concentration of a compound at which the virus replication is inhibited with 50%, as measured by a 50% reduction of the eGFP fluorescent intensity compared to the virus control. The EC50 is calculated using linear interpolation (Table 1).

Compound | SI
COc1cc(NC(C(=O)c2c[nH]c3ccc(C(F)(F)F)cc23)c2ccc(Cl)cc2OCCO)cc(S(C)(=O)=O)c1 (single isomer, unassigned) [Compound 9A, 2-(4-chloro-2-(2-hydroxyethoxy)phenyl)-2-((3-methoxy-5-(methylsulfonyl)phenyl)amino)-1-(5-(trifluoromethyl)-1H-indol-3-yl)ethanone] | 5720
COc1cc(NC(C(=O)c2c[nH]c3cc(OC)c(OC(F)(F)F)cc23)c2ccc(Cl)cc2OCCO)cc(S(C)(=O)=O)c1 (single isomer, unassigned) [Compound 11A, 2-(4-chloro-2-(2-hydroxyethoxy)phenyl)-2-((3-methoxy-5-(methylsulfonyl)phenyl)amino)-1-(6-methoxy-5-(trifluoromethoxy)-1H-indol-3-yl)ethanone] | >2220
COc1cc(NC(C(=O)c2c[nH]c3cc(F)c(F)cc23)c2ccc(Cl)cc2OCCO)cc(S(C)(=O)=O)c1 (racemic) [Compound 7, 2-(4-chloro-2-(2-hydroxyethoxy)phenyl)-1-(5,6-difluoro-1H-indol-3-yl)-2-((3-methoxy-5-(methylsulfonyl)phenyl)amino)ethanone] | >10500
COc1cc(NC(C(=O)c2c[nH]c3cc(F)c(C)cc23)c2ccc(Cl)cc2OCCO)cc(S(C)(=O)=O)c1 (single isomer, unassigned) [Compound 8B, 2-(4-chloro-2-(2-hydroxyethoxy)phenyl)-1-(6-fluoro-5-methyl-1H-indol-3-yl)-2-((3-methoxy-5-(methylsulfonyl)phenyl)amino)ethanone] | >1450
COc1cc(NC(C(=O)c2c[nH]c3cc(Cl)ccc23)c2ccc(Cl)cc2OCCO)cc(S(C)(=O)=O)c1 (racemic) [Compound 2, 1-(6-chloro-1H-indol-3-yl)-2-(4-chloro-2-(2-hydroxyethoxy)phenyl)-2-((3-methoxy-5-(methylsulfonyl)phenyl)amino)ethanone] | >10300
COc1cc(NC(C(=O)c2c[nH]c3ccc(C(F)(F)F)cc23)c2ccc(Cl)cc2OCCO)cc(S(C)(=O)=O)c1 (racemic) [Compound 9, 2-(4-chloro-2-(2-hydroxyethoxy)phenyl)-2-((3-methoxy-5-(methylsulfonyl)phenyl)amino)-1-(5-(trifluoromethyl)-1H-indol-3-yl)ethanone] | >30100
COc1cc(NC(C(=O)c2c[nH]c3c(C)c(Cl)ccc23)c2ccc(Cl)cc2OCCO)cc(S(C)(=O)=O)c1 (single isomer, unassigned) [Compound 5A, 2-(4-chloro-2-(2-hydroxyethoxy)phenyl)-1-(6-chloro-7-methyl-1H-indol-3-yl)-2-((3-methoxy-5-(methylsulfonyl)phenyl)amino)ethanone] | 595
COc1cc(NC(C(=O)c2c[nH]c3cc(OC)ccc23)c2ccc(Cl)cc2OCCO)cc(S(C)(=O)=O)c1 (racemic) [Compound 3, 2-(4-chloro-2-(2-hydroxyethoxy)phenyl)-1-(6-methoxy-1H-indol-3-yl)-2-((3-methoxy-5-(methylsulfonyl)phenyl)amino)ethanone] | >31100
COc1cc(NC(C(=O)c2c[nH]c3cc(F)c(F)cc23)c2ccc(Cl)cc2OCCO)cc(S(C)(=O)=O)c1 (single isomer, unassigned) [Compound 7B, 2-(4-chloro-2-(2-hydroxyethoxy)phenyl)-1-(5,6-difluoro-1H-indol-3-yl)-2-((3-methoxy-5-(methylsulfonyl)phenyl)amino)ethanone] | 1850
COc1cc(NC(C(=O)c2c[nH]c3ccc(OC(F)(F)F)cc23)c2ccc(Cl)cc2OCCO)cc(S(C)(=O)=O)c1 (racemic) [Compound 10, 2-(4-chloro-2-(2-hydroxyethoxy)phenyl)-2-((3-methoxy-5-(methylsulfonyl)phenyl)amino)-1-(5-(trifluoromethoxy)-1H-indol-3-yl)ethanone] | >29600
COc1cc(NC(C(=O)c2c[nH]c3c(C)cc(OC(F)(F)F)cc23)c2ccc(Cl)cc2OCCO)cc(S(C)(=O)=O)c1 (single isomer, unassigned) [Compound 12A, 2-(4-chloro-2-(2-hydroxyethoxy)phenyl)-2-((3-methoxy-5-(methylsulfonyl)phenyl)amino)-1-(7-methyl-5-(trifluoromethoxy)-1H-indol-3-yl)ethanone] | 1030
COc1cc(NC(C(=O)c2c[nH]c3c(C)c(F)ccc23)c2ccc(Cl)cc2OCCO)cc(S(C)(=O)=O)c1 (racemic) [Compound 4, 2-(4-chloro-2-(2-hydroxyethoxy)phenyl)-1-(6-fluoro-7-methyl-1H-indol-3-yl)-2-((3-methoxy-5-(methylsulfonyl)phenyl)amino)ethanone] | >7400
COc1cc(NC(C(=O)c2c[nH]c3cc(OC)c(OC(F)(F)F)cc23)c2ccc(Cl)cc2OCCO)cc(S(C)(=O)=O)c1 (racemic) [Compound 11, 2-(4-chloro-2-(2-hydroxyethoxy)phenyl)-2-((3-methoxy-5-(methylsulfonyl)phenyl)amino)-1-(6-methoxy-5-(trifluoromethoxy)-1H-indol-3-yl)ethanone] | 17200
COc1cc(NC(C(=O)c2c[nH]c3cc(F)ccc23)c2ccc(Cl)cc2OCCO)cc(S(C)(=O)=O)c1 (single isomer, unassigned) [Compound 1B, 2-(4-chloro-2-(2-hydroxyethoxy)phenyl)-1-(6-fluoro-1H-indol-3-yl)-2-((3-methoxy-5-(methylsulfonyl)phenyl)amino)ethanone] | 2420
COc1cc(NC(C(=O)c2c[nH]c3cc(OC)c(C)cc23)c2ccc(Cl)cc2OCCO)cc(S(C)(=O)=O)c1 (racemic) [Compound 6, 2-(4-chloro-2-(2-hydroxyethoxy)phenyl)-2-((3-methoxy-5-(methylsulfonyl)phenyl)amino)-1-(6-methoxy-5-methyl-1H-indol-3-yl)ethanone] | 12700
COc1cc(NC(C(=O)c2c[nH]c3ccc(OC(F)(F)F)cc23)c2ccc(Cl)cc2OCCO)cc(S(C)(=O)=O)c1 (single isomer, unassigned) [Compound 10A, 2-(4-chloro-2-(2-hydroxyethoxy)phenyl)-2-((3-methoxy-5-(methylsulfonyl)phenyl)amino)-1-(5-(trifluoromethoxy)-1H-indol-3-yl)ethanone] | 783
COc1cc(NC(C(=O)c2c[nH]c3c(C)c(Cl)ccc23)c2ccc(Cl)cc2OCCO)cc(S(C)(=O)=O)c1 (racemic) [Compound 5, 2-(4-chloro-2-(2-hydroxyethoxy)phenyl)-1-(6-chloro-7-methyl-1H-indol-3-yl)-2-((3-methoxy-5-(methylsulfonyl)phenyl)amino)ethanone] | >35600
COc1cc(NC(C(=O)c2c[nH]c3cc(OC)ccc23)c2ccc(Cl)cc2OCCO)cc(S(C)(=O)=O)c1 (single isomer, unassigned) [Compound 3B, 2-(4-chloro-2-(2-hydroxyethoxy)phenyl)-1-(6-methoxy-1H-indol-3-yl)-2-((3-methoxy-5-(methylsulfonyl)phenyl)amino)ethanone] | 226
COc1cc(NC(C(=O)c2c[nH]c3cc(Cl)ccc23)c2ccc(Cl)cc2OCCO)cc(S(C)(=O)=O)c1 (single isomer, unassigned) [Compound 2B, 1-(6-chloro-1H-indol-3-yl)-2-(4-chloro-2-(2-hydroxyethoxy)phenyl)-2-((3-methoxy-5-(methylsulfonyl)phenyl)amino)ethanone] | 2130
